Experimental data: patent US20110247088

Sequences of proteins named here, by UniProt entry; tags and fusion partners are left off. A change or cut given only in a name is not applied to a line headed by its entry.
UniProt P04483: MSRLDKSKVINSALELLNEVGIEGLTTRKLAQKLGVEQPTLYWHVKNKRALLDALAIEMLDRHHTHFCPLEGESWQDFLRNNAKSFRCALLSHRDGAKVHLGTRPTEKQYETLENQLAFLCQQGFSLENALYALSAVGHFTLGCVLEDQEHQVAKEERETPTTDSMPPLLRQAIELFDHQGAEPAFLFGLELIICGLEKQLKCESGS

target: reverse tetracycline-dependent transactivator M2 (rtTA-M2, Tet-On Advanced) (UniProt P04483); assay: activity in cells; details: HEK293, +/- doxycycline; functional readout; protein in cells

Activity on this sequence, active:
TTTACTCCCTATCAGTGATAGAGAACGTATGAAGAGTTTACTCCCTATCAGTGATAGAGAACGTATGCAGACTTTACTCCCTATCAGTGATAGAGAACGTATAAGGAGTTTACTCCCTATCAGTGATAGAGAACGTATGACCAGTTTACTCCCTATCAGTGATAGAGAACGTATCTACAGTTTACTCCCTATCAGTGATAGAGAACGTATATCCAGTTTACTCCCTATCAGTGATAGAGAACGTATAAGCTTGCCTATGTTCTTTTGGAATCTATCCAAGTCTTATGTAAATGCTTATGTAAACCATAATATAAAAGAGTGCTGATTTTTTGAGTAAACTTGCAACAGTCCTAACATTCTTCTCTCGTGTGTTTGTGTCTGTTCGCCATCCCGTCTCCGCTCGTCACTTATCCTTCACTTTTCAGAGGGTCCCCCCGCAGATCCCGGTCACCCTCAGGTCGG (double strand) [Ptet-T8]
TTTACTCCCTATCAGTGATAGAGAACGTATGAAGAGTTTACTCCCTATCAGTGATAGAGAACGTATGCAGACTTTACTCCCTATCAGTGATAGAGAACGTATAAGGAGTTTACTCCCTATCAGTGATAGAGAACGTATGACCAGTTTACTCCCTATCAGTGATAGAGAACGTATCTACAGTTTACTCCCTATCAGTGATAGAGAACGTATATCCAGTTTACTCCCTATCAGTGATAGAGAACGTATAAGCTTCCATAATATAAAAGAGTGCTGATTTTTTGAGTAAACTTGCAACAGTCCTAACATTCTTCTCTCGTGTGTTTGTGTCTGTTCGCCATCCCGTCTCCGCTCGTCACTTATCCTTCACTTTTCAGAGGGTCCCCCCGCAGATCCCGGTCACCCTCAGGTCGG (double strand) [Ptet-T9]
TTTACTCCCTATCAGTGATAGAGAACGTATGAAGAGTTTACTCCCTATCAGTGATAGAGAACGTATGCAGACTTTACTCCCTATCAGTGATAGAGAACGTATAAGGAGTTTACTCCCTATCAGTGATAGAGAACGTATGACCAGTTTACTCCCTATCAGTGATAGAGAACGTATCTACAGTTTACTCCCTATCAGTGATAGAGAACGTATATCCAGTTTACTCCCTATCAGTGATAGAGAACGTATAAGCTTCCAGGGCGCCTATAAAAGAGTGCTGATTTTTTGAGTAAACTTGCAACAGTCCTAACATTCTTCTCTCGTGTGTTTGTGTCTGTTCGCCATCCCGTCTCCGCTCGTCACTTATCCTTCACTTTTCAGAGGGTCCCCCCGCAGATCCCGGTCACCCTCAGGTCGG (double strand) [Ptet-T10]
TTTACTCCCTATCAGTGATAGAGAACGTATGAAGAGTTTACTCCCTATCAGTGATAGAGAACGTATGCAGACTTTACTCCCTATCAGTGATAGAGAACGTATAAGGAGTTTACTCCCTATCAGTGATAGAGAACGTATGACCAGTTTACTCCCTATCAGTGATAGAGAACGTATCTACAGTTTACTCCCTATCAGTGATAGAGAACGTATATCCAGTTTACTCCCTATCAGTGATAGAGAACGTATAAGCTTTGCTTATGTAAACCAGGGCGCCTATAAAAGAGTGCTGATTTTTTGAGTAAACTTCAATTCCACAACACTTTTGTCTTATACCAACTTTCCGTACCACTTCCTACCCTCGTAAA (double strand) [Ptet-T11]

For at least one entry, the source does not settle the construct or the ends of the probe.
